Experimental data reported in ChEMBL document CHEMBL1275243 (2010).

Assays:
Bacillus anthracis [1] = experiment: Antimicrobial activity against Bacillus anthracis A0149 assessed as change in fluorescence threshold cycle at 8 ug/ml after 4 hrs by real-time PCR viability assay relative to control
Bacillus anthracis [2] = experiment: Antimicrobial activity against Bacillus anthracis A0102 assessed as change in fluorescence threshold cycle at 16 ug/ml after 4 hrs by real-time PCR viability assay relative to control
Bacillus anthracis [3] = experiment: Antimicrobial activity against Bacillus anthracis A0465 assessed as change in fluorescence threshold cycle at 8 ug/ml after 4 hrs by real-time PCR viability assay relative to control
Bacillus anthracis [4] = experiment: Antimicrobial activity against Bacillus anthracis A0488 assessed as change in fluorescence threshold cycle at 0.5 ug/ml after 4 hrs by real-time PCR viability assay relative to control
Bacillus anthracis [5] = experiment: Antimicrobial activity against Bacillus anthracis A0462 assessed as change in fluorescence threshold cycle at 0.25 ug/ml after 4 hrs by real-time PCR viability assay relative to control
Bacillus anthracis [6] = experiment: Antimicrobial activity against Bacillus anthracis A0419 assessed as change in fluorescence threshold cycle at 1 ug/ml after 4 hrs by real-time PCR viability assay relative to control
Bacillus anthracis [7] = experiment: Antimicrobial activity against Bacillus anthracis A0465 assessed as change in fluorescence threshold cycle at 0.12 ug/ml after 4 hrs by real-time PCR viability assay relative to control
Bacillus anthracis [8] = experiment: Antimicrobial activity against Bacillus anthracis A0264 assessed as change in fluorescence threshold cycle at 0.06 ug/ml after 4 hrs by real-time PCR viability assay relative to control
Bacillus anthracis [9] = experiment: Antimicrobial activity against Bacillus anthracis A0102 assessed as change in fluorescence threshold cycle at 0.25 ug/ml after 4 hrs by real-time PCR viability assay relative to control
Bacillus anthracis [10] = experiment: Antimicrobial activity against Bacillus anthracis A0193 assessed as change in fluorescence threshold cycle at 0.12 ug/ml after 4 hrs by real-time PCR viability assay relative to control
Bacillus anthracis [11] = experiment: Antimicrobial activity against Bacillus anthracis 240 assessed as change in fluorescence threshold cycle at 1 ug/ml after 4 hrs by real-time PCR viability assay relative to control
Bacillus anthracis [12] = experiment: Antimicrobial activity against Bacillus anthracis A0488 assessed as change in fluorescence threshold cycle at 1 ug/ml after 4 hrs by real-time PCR viability assay relative to control
Bacillus anthracis [13] = experiment: Antimicrobial activity against Bacillus anthracis A0264 assessed as change in fluorescence threshold cycle at 2 ug/ml after 4 hrs by real-time PCR viability assay relative to control
Bacillus anthracis [14] = experiment: Antimicrobial activity against Bacillus anthracis 240 assessed as change in fluorescence threshold cycle at 8 ug/ml after 4 hrs by real-time PCR viability assay relative to control
Bacillus anthracis [15] = experiment: Antimicrobial activity against Bacillus anthracis A0102 assessed as change in fluorescence threshold cycle at 2 ug/ml after 4 hrs by real-time PCR viability assay relative to control
Bacillus anthracis [16] = experiment: Antimicrobial activity against Bacillus anthracis A03768 assessed as change in fluorescence threshold cycle at 0.25 ug/ml after 4 hrs by real-time PCR viability assay relative to control
Bacillus anthracis [17] = experiment: Antimicrobial activity against Bacillus anthracis A03768 assessed as change in fluorescence threshold cycle at 1 ug/ml after 4 hrs by real-time PCR viability assay relative to control
Bacillus anthracis [18] = experiment: Antimicrobial activity against Bacillus anthracis A0465 assessed as change in fluorescence threshold cycle at 0.25 ug/ml after 4 hrs by real-time PCR viability assay relative to control
Bacillus anthracis [19] = experiment: Antimicrobial activity against Bacillus anthracis A0419 assessed as change in fluorescence threshold cycle at 4 ug/ml after 4 hrs by real-time PCR viability assay relative to control
Bacillus anthracis [20] = experiment: Antimicrobial activity against Bacillus anthracis A0149 assessed as change in fluorescence threshold cycle at 0.12 ug/ml after 4 hrs by real-time PCR viability assay relative to control
Bacillus anthracis [21] = experiment: Antimicrobial activity against pXO1-positive and pXO2 negative Bacillus anthracis 34F2 assessed as change in fluorescence threshold cycle at 8 ug/ml after 4 hrs by real-time PCR viability assay relative to control
Bacillus anthracis [22] = experiment: Antimicrobial activity against Bacillus anthracis A0188 assessed as change in fluorescence threshold cycle at 2 ug/ml after 4 hrs by real-time PCR viability assay relative to control
Bacillus anthracis [23] = experiment: Antimicrobial activity against Bacillus anthracis A03768 assessed as change in fluorescence threshold cycle at 8 ug/ml after 4 hrs by real-time PCR viability assay relative to control
Bacillus anthracis [24] = experiment: Antimicrobial activity against Bacillus anthracis 240 assessed as change in fluorescence threshold cycle at 0.06 ug/ml after 4 hrs by real-time PCR viability assay relative to control
Bacillus anthracis [25] = experiment: Antimicrobial activity against pXO1-positive and pXO2 negative Bacillus anthracis 34F2 assessed as change in fluorescence threshold cycle at 1 ug/ml after 4 hrs by real-time PCR viability assay relative to control
Bacillus anthracis [26] = experiment: Antimicrobial activity against Bacillus anthracis A03768 assessed as change in fluorescence threshold cycle at 0.06 ug/ml after 4 hrs by real-time PCR viability assay relative to control
Bacillus anthracis [27] = experiment: Antimicrobial activity against Bacillus anthracis A0248 assessed as change in fluorescence threshold cycle at 16 ug/ml after 4 hrs by real-time PCR viability assay relative to control
Bacillus anthracis [28] = experiment: Antimicrobial activity against Bacillus anthracis A0102 assessed as change in fluorescence threshold cycle at 8 ug/ml after 4 hrs by real-time PCR viability assay relative to control

SMILES | deltaCT (Bacillus anthracis [1]) | deltaCT (Bacillus anthracis [2]) | deltaCT (Bacillus anthracis [3]) | deltaCT (Bacillus anthracis [4]) | deltaCT (Bacillus anthracis [5]) | deltaCT (Bacillus anthracis [6]) | deltaCT (Bacillus anthracis [7]) | deltaCT (Bacillus anthracis [8]) | deltaCT (Bacillus anthracis [9]) | deltaCT (Bacillus anthracis [10]) | deltaCT (Bacillus anthracis [11]) | deltaCT (Bacillus anthracis [12]) | deltaCT (Bacillus anthracis [13]) | deltaCT (Bacillus anthracis [14]) | deltaCT (Bacillus anthracis [15]) | deltaCT (Bacillus anthracis [16]) | deltaCT (Bacillus anthracis [17]) | deltaCT (Bacillus anthracis [18]) | deltaCT (Bacillus anthracis [19]) | deltaCT (Bacillus anthracis [20]) | further results
O=C(O)c1cn(C2CC2)c2cc(N3CCNCC3)c(F)cc2c1=O [CIPROFLOXACIN] | 0.44 | 8.74 | 0.86 | 2.19 | 5.36 | 8.6 | 6.73 | 8.9 | 7.09 | 0.59 | 0.72 | 8.35 | 7.34 | 0.81 | 8.22 | 3.14 | 8.74 | 6.96 | 7.05 | 4.65 | deltaCT (Bacillus anthracis [21]): 6.87; deltaCT (Bacillus anthracis [22]): 0.88; deltaCT (Bacillus anthracis [23]): 0; deltaCT (Bacillus anthracis [24]): 6.7; deltaCT (Bacillus anthracis [25]): 8.53; deltaCT (Bacillus anthracis [26]): 7.37; deltaCT (Bacillus anthracis [27]): 4.58; deltaCT (Bacillus anthracis [28]): 0.97
C[C@H]1c2cccc(O)c2C(=O)C2=C(O)[C@]3(O)C(=O)C(C(N)=O)=C(O)[C@@H](N(C)C)[C@@H]3[C@@H](O)[C@@H]21.O [DOXYCYCLINE] | 8.35 | 0.42 | 7.95 | 8.18 | 6.29 | 8.33 | 6.59 | 7.11 | 6.25 | 8.16 | 6.95 | 8.12 | 8.79 | 7.86 | 6.37 | 6 | 8.28 | 6.53 | 7.9 | 6.99 | deltaCT (Bacillus anthracis [21]): 7.73; deltaCT (Bacillus anthracis [22]): 7.87; deltaCT (Bacillus anthracis [23]): 7.69; deltaCT (Bacillus anthracis [24]): 7.07; deltaCT (Bacillus anthracis [25]): 8.32; deltaCT (Bacillus anthracis [26]): 7.2; deltaCT (Bacillus anthracis [27]): 0.26; deltaCT (Bacillus anthracis [28]): 7.72
